Experimental data published in patent US20120207760A1, “Compositions and Methods for the Therapy and Diagnosis of Influenza” (THERACLONE SCIENCES, published 2012).

What was measured:
[1] = target: T1, hemagglutinin (HA) of influenza A/Wisconsin/67/05 H3N2 (Influenza A virus A/Wisconsin/67/2005 …); assay: ELISA, inactivated whole virions coated; transfection supernatant set 2
[2] = target: T1, hemagglutinin (HA) of influenza …; assay: ELISA, inactivated whole virions coated; transfection supernatant set 3
[3] = target: recombinant soluble homotrimeric HA of A/northern shoveler/California/HKWF115/07 (Influenza A virus A/northern …); assay: microarray, BCC supernatant IgG, trimeric HA
[4] = target: recombinant soluble homotrimeric HA of A/chicken/Vietnam/NCVD-016/08 (H5N1) (Influenza A virus …); assay: microarray, BCC supernatant IgG, trimeric HA
[5] = target: recombinant soluble homotrimeric HA of A/California/4/09 (H1N1) (Influenza A virus A/California/4/09 …); assay: microarray, BCC supernatant IgG, trimeric HA
[6] = target: recombinant soluble homotrimeric HA of A/duck/Yangzhou/02/05 (H8N4) (Influenza A virus …); assay: microarray, BCC supernatant IgG, trimeric HA
[7] = target: recombinant soluble homotrimeric HA of A/Solomon Islands/3/06 (H1N1) (Influenza A virus A/Solomon …); assay: microarray, BCC supernatant IgG, trimeric HA
[8] = target: recombinant soluble homotrimeric HA of A/Egypt/3300-NAMRU3/08 (H5N1) (Influenza A virus …); assay: microarray, BCC supernatant IgG, trimeric HA
[9] = target: recombinant soluble homotrimeric HA of A/swine/Ontario/01911-2/99 (H4N6) (Influenza A virus …); assay: microarray, BCC supernatant IgG, trimeric HA
[10] = target: recombinant soluble homotrimeric HA of A/Vietnam/1203/04 (H5N1) (Influenza A virus A/Vietnam/1203/04 …)
[11] = target: recombinant soluble homotrimeric HA of A/Wisconsin/67/05 (H3N2) (Influenza A virus A/Wisconsin/67/05 …)
[12] = target: recombinant soluble homotrimeric HA of A/Indonesia/5/05 (H5N1) (Influenza A virus A/Indonesia/5/05 …)
[13] = target: recombinant soluble homotrimeric HA of A/Anhui/1/05 (H5N1) (Influenza A virus A/Anhui/1/05 (H5N1))

Binder | OD450 [1] [OD450] | OD450 [2] [OD450] | Trimeric HA Binding: RLU [5] [RLU] | Trimeric HA Binding: RLU [6] [RLU] | Trimeric HA Binding: RLU [7] [RLU] | Trimeric HA Binding: RLU [8] [RLU] | Trimeric HA Binding: RLU [10] [RLU] | Trimeric HA Binding: RLU [11] [RLU] | Trimeric HA Binding: RLU [12] [RLU] | other results
TCN-526 (5084_C17) (antibody, V domains shown) VH: EVLMVESGGGLVQPGGSVRLSCVASGFSFSSHWMTWVRQAPGKGLEWVANIEDDGGDKYYVDSVKGRFIISRDNAKNSVYLQMNSLRAEDTAVYFCARGSGSSDRSDYDPHYYYYLDVWGKGATVTVSS VL: DIQLTQSPSSLSASVGDRVTITCRASQSISRYLNWYQQKPGKAPKLLLFAASTLLDGVPSRFSGSGSGTDFTLTISSLQPEDFATYYCQRNHSPSWTFGQGTRVEIK | 0.31 | – | – | – | – | – | – | – | – | –
TCN-531 (5091_H13) (antibody, V domains shown) VH: EVQLVESGGDLVQPGRSLKLSCTGSGFTFGDYGVTWVRQAPGKGLEWVGFIRTRPWGGTADTAASVKGRFTISRDDSKSLAYLQMNSLKTEDTAVYYCCRDAPPNVEVASMTNWYFDLWGRGTLVTVSS VL: DIQLTQSPSSLSASVGDRVTITCRASQGILNCLAWYQQKPGKVPNLLMYAASTLQSGVPSRFSGSGFGTDFTLTISSLQPEDVATYYCQTYGGVSTFGGGTKVEIR | – | 3.59 | – | – | – | – | – | – | – | –
TCN-532 (5262_H18) (antibody, V domains shown) VH: QVQLQESGPGLVKPSETLSLTCTVSGGSVSSETYYWSWIRQPPGKGLEWIGYIYYIGNTDYRPSLKSRVTISLDTSKNQFSLKLSSVTAADTAVYYCARGAYYDSSGYPAFYIWGQGTMVTVSS VL: QSVLTQPPSVSGAPGQRVTISCTGSSSNIGSDYDVHWYKQLPGTAPKLLIFGNSNRPSGVPDRFSGSKSGTSASLAITGLQAEDEADYYCQSYDSSLSGFHVFGSGTKVTVL | – | 3.43 | – | – | – | – | – | – | – | –
TCN-533 (5256_A17) (antibody, V domains shown) VH: QVQLVQSGADVKKPGSSVTVSCKASGGSFSNYGINWVRQAPGQGLEWMGGIIPLINAPNYAPKFQGRVTITADMFSNIVSLQLTSLRTDDTAVYYCARRKMTTAIDYWGQGTLVTVSS VL: QPVLSQPPSASASLGASVTLTCTLSSGFDNYQVAWYQQRPGKGPRFVMRVGNGGNVASKGDGIPDRFSVSGSGLNRYLTIKNIQEDDESDYYCGADHGSGNNFVSPYVFGGGTKLTVL | – | 0.22 | – | – | – | – | – | – | – | –
TCN-553 (5261_C18) (antibody, V domains shown) VH: QVQVVQSGTEVKKPGSSVKVSCQTSGGRFMSYAITWVRQAPGQGLEWMGGIVPVFGTANYAQKFQGRVTITTDDSTRTAYMELSSLRSEDTAVYYCGFRYGSGYGFDSWGQGTLVTVSS VL: EIVLTQSPGTLSLSPGERATLSCRASQSVSSSYLAWYQKKPGQAPRLLIYGASTRATGIPDRFTGSGSGTDFTLSISRLEPEDFAVYYCQHFGTSVFTFGGGTKVEIK | – | – | 20300 | 28000 | 16300 | 18800 | 6560 | 20000 | 24400 | Trimeric HA Binding: RLU [3]: 21700 RLU; Trimeric HA Binding: RLU [4]: 24200 RLU; Trimeric HA Binding: RLU [9]: 2580 RLU; Trimeric HA Binding: RLU [13]: 12600 RLU
TCN-552 (5249_I23) (antibody, V domains shown) VH: QVQVVQSGAEVKKPGSSVRVSCQASGGTFMNYAIIWVRRAPGQGLEWMGGIIPVFPTPNYAQMFQGRVTISTDESRSTSFLELTNLRYEDTAVYYCARRIYHGGNSGFDFWGQGTLVTVSS VL: EIVLTQSPATLSLSPGERATLSCRASQSVGNYLAWYQQKPGQAPRLLIYDSSNRAPGIPARFSGSGSGTDFTLTISSLAPEDFAVYYCQQRSKWPPMYSFGHGTKLEIK | – | – | 35300 | 13100 | 39300 | 40000 | 2730 | 14800 | 43600 | Trimeric HA Binding: RLU [3]: 38400 RLU; Trimeric HA Binding: RLU [4]: 46200 RLU; Trimeric HA Binding: RLU [13]: 4160 RLU
TCN-527 (5086_C06) (antibody, V domains shown) VH: QVQLQESGPGLVKPSETLSLNCAVSGGSISNYYWSWIRQPPGKGLEWIGYISYNGRPKYNPSLTSRVTISVDTSKDQFSLELRSVTAADTALYYCARETRFGELLSPYDAFEIWGQGTMVTVSS VL: DIQMTQSPSSLSASVGDRVTMTCRASQNIRSYLNWYQQRPGTAPKLLIYAASTLHSGVPSRFSGGGSGTDFTLTINNLQPEDFASYYCQQSYDNPQTFGQGTKVEIK | 0.14 | – | – | – | – | – | – | – | – | –
TCN-530 (5248_H10a) (antibody, V domains shown) VH: QVQLVQSGAEVRKPGSSVKVSCKASGGPFMSYAIGWVRQAPGQGLEWMGGINPVFGRPHYAQKFQGRVTIATDDSTKTSYMELSSLTSEDTGMYYCASRYSRSSPGTFESWGQGTLVTVSS VL: EIVMTQFPATLSVSPGERVTLSCRASQSVSNNLAWYQQKPGQPPRLLIYDASTRATGVPAKFSGTGSGTEFTLSISSLQSEDFAVYYCQQYHNWPPSYSFGLGTKLEIK | – | 0.21 | – | – | – | – | – | – | – | –
TCN-528 (5087_P17) (antibody, V domains shown) VH: QVQLVQSGSEVKKPGASVKVSCKASGYTFTNYDINWIRQAPGQGLEWMGWINPNSGTTGSAQRFQGRVTITVDTSITTVYMELSSLRSDDTAIYYCARGRELLRLQHFLTDSQSERRDCFDPWGQGTLVTVSS VL: DIQMTQSPSSLSASVGDRVTITCRANQDIGIYLNWYQQNPGKVPKLLLHGASSLQGGVPSRFSASGSGTDFTLTIHSLQPEDLATYYCQQSRRLPYTFGQGTRVELK | 0.23 | – | – | – | – | – | – | – | – | –
TCN-529 (5297_H01) (antibody, V domains shown) VH: QITLRESGPTLVKPTQTLTLTCTFSGFSLSTNGVNVGWIRQPPGKALEWLALIYWDDDKRYSPSLKRRLTITKDTSKNQVVLTLTNMDPVDTATYYCAHRPDFYGDFEYWGPGTLVTVSS VL: QSALTQPASVSGSPGQSITISCTGSSSDIGGYNYVSWYQQHPGKAPKLMIYDVNNRPSGVSNRFSGSKSGNTASLTISGLQTDDEADYYCGSYTGSPHYVFGTGTKVTVL | – | 3.65 | – | – | – | – | – | – | – | –
TCN-551 (5243_D01) (antibody, V domains shown) VH: EVQLVQSGSEVKKPGESLKISCKGSGYSFSNYWIGWVRHMPGKGLEWMGIIYPGDSDTRYSPSFQGQVTMSADKSSSTVYLQWSSLKASDTAIYYCARRGGHSFGYGSGGDTHSEFDSWGQGTLVTVSS VL: QSVLTQSPSVSAAPGQKVTISCSGSDSNIGDYFVCWYQHLPGKPPQLLIYENNKRPSGIPDRFSGSKSGTSATLGITGIQTGDEADYYCATWDGSLSAWVFGGGTKLTVL | – | – | 53400 | 9820 | 53800 | 47200 | 4150 | 6840 | 53500 | Trimeric HA Binding: RLU [13]: 4190 RLU
TCN-555 (5246_L16) (antibody, V domains shown) VH: QVQLVQSGAEVKRPGSSVKVSCTASGGIFRKNAISWVRQAPGQGLEWMGGIIAVFNTANYAQKFQNRVKITADESGNTAYMELSSLTSDDTAVYYCASHPKYFYGSGSYPDFWGQGTLVTVSS VL: QSALTQPRSVSGSPGQSITISCTGGSSDIGASNSVSWYQQHPGKAPKLVIFDVTERPSGVPHRFSGSKSGNTASLTVSGLQPDDEADYFCCAYGGKYLVVFGGGTKVTVL | – | – | 44900 | 18400 | 26400 | 42700 | 876 | 9800 | 34500 | Trimeric HA Binding: RLU [3]: 49500 RLU; Trimeric HA Binding: RLU [4]: 22300 RLU
TCN-563 (5237_B21) (antibody, V domains shown) VH: QVQLAQSGAEVKRPGSSVKVSCTASGGIFRKNAISWVRQAPGQGLEWMGGIIAVFNTANYAQKFQGRVKITADESGNTAYMELSSLRSDDTAVYYCASHPKYFYGSGSYPDFWGQGTLVTVSS VL: QSALTQPRSVSGSPGQSVTISCTGSSSDVGASNSVSWYQQHPGKAPKLVIYDVTERPSGVPHRFSGSKSGNTASLTVSGLQPEDEADYFCCAYGGKYLVVFGGGTKVTVL | 0.09 | – | – | – | – | – | – | – | – | –
